Data on 1 molecule can be found in patent US20110039758A1 (published 2011).

The target in the assay is T1, Maltose Binding Protein (MBP) fused to […] of nNOS.
T1 construct: range […]; also called MBP-nNOS; internal PL of nNOS
As to the kind of experiment: G assay with MBP-nNOS, anti-MBP-HRP, FIG. 11.

B1: GST-PSD95 PDZ domain 2 (other)
chain: MSPILGYWKIKGLVQPTRLLLEYLEEKYEEHLYERDEGDKWRNKKFELGLEFPNLPYYIDGDVKLTQSMAIIRYIADKHNMLGGCPKERAEISMLEGAVLDIRYGVSRIAYSKDFETLKVDFLSKLPEMLKMFEDRLCHKTYLNGDHVTHPDFMLYDALDVVLYMDPMCLDAFPKLVCFKKRIEAIPQIDKYLKSSKYIAWPLQGWQATFGGGDHPPKSDLIEGRHVMRRKPPAEKVMEIKLIKGPKGLGFSIAGGVGNQHIPGDNSIYVTKIIEGGAAHKDGRLQIGDKILAVNSVGLEDVMHEDAVAALKNTYDVVYLKVAKPSNAYL
notes: also called PSD95 d2; PSD-95 d2
As for B1, the binding result is “binds”.
